Experimental data: PMC5472179 (Nature Communications, 2017)

B1: eNP_(590–739) WT (domain or fragment)
chain: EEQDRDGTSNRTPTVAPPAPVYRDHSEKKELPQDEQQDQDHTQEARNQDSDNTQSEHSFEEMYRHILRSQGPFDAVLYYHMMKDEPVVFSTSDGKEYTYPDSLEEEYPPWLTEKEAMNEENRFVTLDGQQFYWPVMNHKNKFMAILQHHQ

Tests used:
eVP30 110-272 Q203A = eVP30 110-272 Q203A (Ebola virus (Zaire), UniProt Q05323 110-272, Q203A)
eVP30 110-272 Q229A = eVP30 110-272 Q229A (Ebola virus (Zaire), UniProt Q05323 110-272, Q229A)
eVP30 110-272 = biological target: T1, eVP30 110-272 (Ebola virus (Zaire), UniProt Q05323 110-272)
T1 sequence: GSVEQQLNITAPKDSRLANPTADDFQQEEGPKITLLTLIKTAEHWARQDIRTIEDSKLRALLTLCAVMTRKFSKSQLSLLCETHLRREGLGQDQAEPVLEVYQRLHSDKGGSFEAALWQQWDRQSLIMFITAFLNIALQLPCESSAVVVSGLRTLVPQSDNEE

eVP30_(110–272) = biological target: T2, eVP30_(110–272) (Ebola Zaire, UniProt Q05323 110-272); experiment: fluorescence polarisation
T2 sequence: T1 sequence

| Binder | binding result (eVP30 110-272 Q203A) | binding result (eVP30 110-272 Q229A) | binding result (eVP30 110-272) | binding result (eVP30_(110–272)) |
| --- | --- | --- | --- | --- |
| RTPTVAPPAPVYRDHS (fluorescein isothiocyanate (FITC) conjugated; position not stated) [FITC-labeled eNP600-615 peptide] | binds | binds | binds | – |
| RTPTVAPPAPVYRDHS (conjugated to fluorescein isothiocyanate (FITC)) [FITC-eVP30BP] | – | – | – | binds |
| B1 | – | – | – | binds |
